Measured values from several laboratories, pooled; numbers as filed in NIAID ChemDB.

Shared fields: tests in culture; agent: Aspergillus fumigatus

Two numbers with a dash give a range or band. A number after MIC or MFC names an inhibition level or a share of isolates. Conditions beyond the fields shown may differ between rows. An empty or dashed field is not shown.

structure,endpoint,method,strain or isolate,result
CNCCC(Oc1ccc(C(F)(F)F)cc1)c1ccccc1,MFC,,10 clinical isolates,39–625 µg/mL
C[C@H]1[C@H](O)[C@@H](C)/C=C/C=C/C=C/C=C/C=C/C=C/C=C/[C@H](O[C@@H]2O[C@H](C)[C@@H](O)[C@H](N)[C@@H]2O)C[C@@H]2O[C@](O)(C[C@@H](O)C[C@@H](O)CC[C@H](O)[C@@H](O)C[C@@H](O)CC(=O)O[C@H]1C)C[C@H](O)[C@H]2C(=O)O,MIC90,,60 isolates,0.5 µg/mL
CCCCCCCCCNC1CCc2ccc(O)cc2C1,MIC,,,32 µM
COc1cccc(C(=O)/C=C/c2cc3ccccc3cc2OC)c1,MIC,,ATCC 26934,>50 µg/mL
Cc1ccc(Oc2nc3ccccc3cc2C2C(C#N)=C(N)Oc3c2c(=O)oc2ccccc32)cc1,MIC,,MTCC 3008,500 µg/mL
COc1cc2cc(/C=C/C(=O)c3ccc(Br)cc3)c(Cl)nc2cc1OC,MIC,,ATCC 26934,>50 µg/mL
CCN1CCN(c2ccccc2)CC1,MIC,,ITCC 4517,62.5 µg/mL
CCCCCOc1ccc(-c2cc(-c3ccc(C(=O)N[C@H]4C[C@@H](O)[C@@H](O)NC(=O)[C@@H]5[C@@H](O)[C@@H](C)CN5C(=O)[C@H]([C@H](O)CC(N)=O)NC(=O)[C@H]([C@H](O)[C@@H](O)c5ccc(O)c(OS(=O)(=O)O)c5)NC(=O)[C@@H]5C[C@@H](O)CN5C(=O)[C@H]([C@@H](C)O)NC4=O)cc3)no2)cc1,MIC,,,0.015–0.03 µg/mL
Cc1ccc2nc(Oc3ccc(F)cc3)c(C3C(C#N)=C(N)OC4=C3C(=O)CCC4)cc2c1,MIC,,MTCC 3008,500 µg/mL
Nc1[nH]c(=O)ncc1F,MIC,,,0.5–64 µg/mL
COc1cc(/C=C/C(=O)N2C/C(=C\c3ccccc3)C(=O)/C(=C/c3ccccc3)C2)cc(OC)c1OC,MIC,,3 clinical isolates,>32 µg/mL
COc1ccc2nc(Oc3ccccc3)c(C3C(C#N)=C(N)Oc4c3c(=O)oc3ccccc43)cc2c1,MIC,,MTCC 3008,500 µg/mL
CCC(C)CC(C)CCCCCCCCC(=O)N[C@H]1C[C@@H](O)[C@H](NCCN)NC(=O)[C@@H]2[C@@H](O)CCN2C(=O)[C@H]([C@H](O)CCN)NC(=O)[C@H]([C@H](O)[C@@H](O)c2ccc(O)cc2)NC(=O)[C@@H]2C[C@@H](O)CN2C(=O)[C@H]([C@@H](C)O)NC1=O,MIC50,,,0.06–0.5 µg/mL
O=C(O)c1ccc(/C=C/C(=O)c2ccc(O)cc2)cc1,MIC,,3 clinical isolates,>32 µg/mL
CC(=O)Oc1ccc2oc(=O)ccc2c1,MIC,,ATCC 16913,500 µg/mL
CCCCCCCCCCNC1CCc2ccc(O)cc2C1,MIC,,,16 µM
C[C@H]1[C@H](O)[C@@H](C)/C=C/C=C/C=C/C=C/C=C/C=C/C=C/[C@H](O[C@@H]2O[C@H](C)[C@@H](O)[C@H](N)[C@@H]2O)C[C@@H]2O[C@](O)(C[C@@H](O)C[C@@H](O)CC[C@H](O)[C@@H](O)C[C@@H](O)CC(=O)O[C@H]1C)C[C@H](O)[C@H]2C(=O)O,MIC50,,,0.25–4 µg/mL
N#CC(C#N)C(CC(=O)c1ccccc1)c1ccc(Cl)cc1Cl,MIC,,ATCC 26934,>50 µg/mL
CC(C)(C)c1ccc(CN(Cc2cccc3ccccc23)n2ccnc2)cc1,MIC,,,>200 µM
C[C@@H]1[C@H](O)[C@@H](C)/C=C/C=C/CC/C=C/C=C/C=C/C=C/[C@H](O[C@@H]2O[C@H](C)[C@@H](O)[C@H](N)[C@@H]2O)C[C@@H]2O[C@](O)(C[C@@H](O)[C@H](O)CC[C@@H](O)C[C@@H](O)C[C@@H](O)CC(=O)O[C@H]1C)C[C@H](O)[C@H]2C(=O)O,MIC,,MTCC 3008,100 µg/mL
N#Cc1ccc2oc(=O)ccc2c1,MIC,,ATCC 16913,1000 µg/mL
COC(=O)C(C(=O)OC)C(CC(=O)c1ccccc1)c1cccc(OC)c1OC,MIC,,ATCC 26934,>50 µg/mL
CNc1ccc(C(=O)CC(O)CC[C@H](C)[C@H]2OC(=O)C[C@H](O)CC(=O)CC(O)CC(O)CC(O)CC(O)C[C@]3(O)C[C@H](O)[C@@H](C(=O)NCCN(C)C)[C@H](C[C@@H](O[C@@H]4OC(C)[C@@H](O)[C@H](NC(=O)CN(C)C)[C@@H]4O)/C=C/C=C/C=C/C=C/C=C/C=C/C=C/[C@@H]2C)O3)cc1.O=C1O[C@H]([C@@H](O)CO)C(O)=C1O.O=C1O[C@H]([C@@H](O)CO)C(O)=C1O,MIC,broth dilution,MF-13,0.5 µg/mL
CCCCCOc1ccc(-c2ccc(-c3ccc(C(=O)N[C@H]4C[C@@H](O)[C@@H](O)NC(=O)[C@@H]5[C@@H](O)[C@@H](C)CN5C(=O)[C@H]([C@H](C)O)NC(=O)[C@H]([C@H](O)[C@@H](O)c5ccc(O)cc5)NC(=O)[C@@H]5C[C@@H](O)CN5C(=O)[C@H]([C@H](C)O)NC4=O)cc3)cc2)cc1,MIC50,,,0.015 µg/mL
Cc1ccc2nc(Oc3ccccc3)c(C3C(C#N)=C(N)Oc4c3c(=O)oc3ccc(C)cc43)cc2c1,MIC,,MTCC 3008,>1000 µg/mL
CCCCCCCCCNC1CCc2cc(OC)ccc2C1,MIC,,,8 µM
C[N+]1=CC2C(=O)c3nccc4ccnc(c34)C2C1,MIC80,,,>64 µg/mL
COc1ccc(Oc2nc3ccc(C)cc3cc2C2C(C#N)=C(N)OC3=C2C(=O)CCC3)cc1,MIC,,MTCC 3008,500 µg/mL
CN(C/C=C/c1ccccc1)Cc1cccc2ccccc12,MIC,,,>200 µM
O=C1C(=O)c2ccccc2-c2ccccc21,MIC,visual reading,KACC 40080,40 µg/mL
Cc1ccc2oc(=O)c3c(c2c1)OC(N)=C(C#N)C3c1cc2ccccc2nc1Oc1ccc(Cl)cc1,MIC,,MTCC 3008,500 µg/mL
COc1ccc(N=NC2SC(=Nc3ccccc3)N(CCN3C(=Nc4ccccc4)SC(N=Nc4ccc(OC)cc4)C3C)C2C)cc1,MIC,broth dilution,,1.95 µg/mL
CCC(C)CC(C)CCCCCCCCC(=O)N[C@H]1C[C@@H](O)[C@H](NCCN)NC(=O)[C@@H]2[C@@H](O)CCN2C(=O)[C@H]([C@H](O)CCN)NC(=O)[C@H]([C@H](O)[C@@H](O)c2ccc(O)cc2)NC(=O)[C@@H]2C[C@@H](O)CN2C(=O)[C@H]([C@@H](C)O)NC1=O,MIC,XTT,ATCC 204305,128 µg/mL
COc1cc(C(=O)CC(c2cc(OC)c(OC)c(OC)c2)C(C#N)C#N)cc(OC)c1OC,MIC,,ATCC 26934,>50 µg/mL
c1ccc(N=C2SCC(c3ccccc3)N2CCN2C(=Nc3ccccc3)SCC2c2ccccc2)cc1,MIC,broth dilution,,7.8 µg/mL
CC1(C)CC(=O)C2=C(C1)OC(N)=C(C#N)C2c1cc2ccccc2nc1Oc1ccccc1,MIC,,MTCC 3008,>1000 µg/mL
Cc1ccc2oc(=O)ccc2c1,MIC,,ATCC 16913,1000 µg/mL
CCCCCCCCNC1CCc2cccc(OC)c2C1,MIC,,,64 µM
O=c1ccc2cc(C(O)O)ccc2o1,MIC,,ATCC 16913,>1000 µg/mL
O=C1/C(=C\c2ccccc2)CN(C(=O)c2ccc(/C=C/C(=O)c3ccc(Cl)c(Cl)c3)cc2)C/C1=C/c1ccccc1,MIC,,3 clinical isolates,>32 µg/mL
N#CC(C#N)C(CC(=O)c1ccccc1)c1cc2ccccc2nc1Cl,MIC,,ATCC 26934,>50 µg/mL
CC(C)=CCOc1ccc2c(c1C)C(=O)c1ccccc1C2=O,MIC,broth dilution,Standard strain,31.25 µg/mL
Cc1ccc(Oc2nc3ccc(C)cc3cc2C2C(C#N)=C(N)OC3=C2C(=O)CCC3)cc1,MIC,,MTCC 3008,500 µg/mL
O=C1/C(=C/c2ccccc2)CN(C(=O)c2ccc(/C=C/C(=O)c3ccc(O)cc3)cc2)C/C1=C\c1ccccc1,MIC,,3 clinical isolates,>32 µg/mL
CC(C)=CCc1c(O)ccc2ccc(=O)oc12,MIC,,ATCC 16913,250 µg/mL
COc1ccc(C(=O)/C=C/c2ccc(C(=O)O)cc2)cc1,MIC,,3 clinical isolates,>32 µg/mL
CCN1CCN(Cc2ccccc2)CC1,MIC,,ITCC 4517,500 µg/mL
COc1ccc2oc(=O)ccc2c1,MIC,,ATCC 16913,>1000 µg/mL